Source: article PMC7004148, “Flexible Fragment Growing Boosts Potency of Quorum‐Sensing Inhibitors against Pseudomonas aeruginosa Virulence” (Chemmedchem, 2019)

Each compound was assayed on pyocyanin in P. aeruginosa PA14 (assay: Pyocyanin assay in P. aeruginosa PA14 cultures). Conditions: PEI=pIC50/MW.
Format: cell-based, Pseudomonas aeruginosa PA14
Protocol: 6. Effects in P. aeruginosa
Pyocyanin Assay. The inhibition of virulence factor pyocyanin was measured as described previously[26] following a procedure established by Essar et al.[28] Briefly, Pseudomonas aeruginosa PA14 cultures were grown in the presence of inhibitors or DMSO as control for 16 h. Pyocyanin was determined photometrically after extraction of the cultures with chloroform and re-extraction with 0.2 M HCl. Protonated red colored pyocyanin was determined by measuring OD520 and normalizing to OD600. None of the compound impaired bacterial viability as observed by the OD600 parameter. Inhibition values were expressed in relation to the DMSO control. Each value is the mean of at least two independent experiments with n=3.
The given IC50 values represent the mean of at least two experiments using at least five different concentrations. Curve fitting was performed using the log (inhibitor) vs response model with constrained bottom = 0 and top =100 (GraphPad Prism 5.0).
Figure S4: Inhibition of virulence factor pyocyanin was evaluated in the clinical isolate PA14.
Representative dose-response curves a) compound 11 b) compound 20. Black dotes (•) represent the reduction of pyocyanin in presents of a given compound concentration relative to DMSO control (= 0 %). The continuous black line is the none -linear regression analysis to […]
(1 picture or pasted object on this page, not shown here)

Point of comparison: `Nc1cc(NCCCc2ccc(F)cc2)cc(C(F)(F)F)n1` [Compound 20], “PEI (Pyocyanin Efficiency Index)” value 0.0168. Against it:
- Nc1cc(NCc2ccc(F)cc2)cc(C(F)(F)F)n1 [Compound 11] — lower, 0.0140
- O=C(CSc1nc2ccc([N+](=O)[O-])cc2[nH]1)Nc1ccc(Oc2ccccc2)cc1 [Compound R1, reference compound] — lower, 0.0165
- CCCCCCCc1[nH]c2ccc([N+](=O)[O-])cc2c(=O)c1C(N)=O [Compound R2, reference compound] — higher, 0.0172
